Source: patent US6623741B1, “Methods and compositions for inhibition of membrane fusion-associated events including RSV transmission” (Trimeris, Inc., priority 2000, dated 2003)

Tested on: HIV-1LAI
Conditions: FIG. 1 legend
Method: Cell Free Virus Infection Assay:
Synthetic peptides were incubated at 37° C. with either 247 TCID50 (for experiment depicted in FIG. 2), or 62 TCID50 (for experiment depicted in FIG. 3) units of HIV-1LAI virus or 25 TCID50 units of HIV-2^NIHZ and CEM CD4^+ cells at peptide concentrations of 0, 0.04, 0.4, 4.0, and 40 μg/ml for 7 days. The resulting reverse transcriptase (RT) activity in counts per minute was determined using the assay described, below, in Section 6.1.5. See, Reed, L. J. et al., 1938, Am. J. Hyg. 27: 493-497 for an explanation of TCID50 calculations.
Reverse Transcriptase Assay:
The micro-reverse transcriptase (RT) assay was adapted from Goff et al. (Goff, S. et al., 1981, J. Virol. 38:239-248) and Willey et al. (Willey, R. et al., 1988, J. Virol. 62:139-147). Supernatants from virus/cell cultures are adjusted to 1% Triton-X100. A 10 μl sample of supernatant was added to 50 μl of RT cocktail in a 96-well U-bottom microtitre plate and the samples incubated at 37° C. for 90 min. The RT cocktail contained 75 mM KCl, 2 mM dithiothreitol, 5 mM MgCl2, 5 μg/ml poly A (Pharmacia, cat. No. 27-4110-01), 0.25 units/ml oligo dT (Pharmacia, cat. No. 27-7858-01), 0.05% NP40, 50 mM Tris-HCl, pH 7.8, 0.5 μM non-radioactive dTTP, and 10 μCi/ml ^32P-dTTP (Amersham, cat. No. PB. 10167). […]

SMILES	inhibition of HIV-1 cell free virus infection (in words)
CC[C@H](C)[C@H](NC(=O)[C@H](C)NC(=O)[C@@H](NC(=O)[C@@H](NC(=O)[C@H](CCCNC(=N)N)NC(=O)[C@H](C)NC(=O)[C@H](CCC(N)=O)NC(=O)[C@H](CC(C)C)NC(=O)[C@H](CC(N)=O)NC(=O)[C@H](CCCCN)NC(=O)[C@@H](NC(=O)CNC(=O)[C@H](Cc1c[nH]c2ccccc12)NC(=O)[C@@H](NC(=O)[C@@H](NC(=O)[C@H](CC(C)C)NC(=O)[C@H](CCCNC(=N)N)NC(=O)[C@H](CC(C)C)NC(=O)[C@H](CCSC)NC(=O)[C@H](CCC(=O)O)NC(=O)[C@H](CCC(N)=O)NC(=O)[C@H](CCC(N)=O)NC(=O)[C@H](CCCNC(=N)N)NC(=O)[C@H](CCCCN)NC(=O)[C@@H](NC(=O)[C@@H](NC(=O)[C@H](CC(=O)O)NC(=O)[C@H](CC(C)C)NC(=O)[C@H](CC(C)C)NC(=O)[C@H](CCC(N)=O)NC(=O)[C@H](CCC(N)=O)NC(C)=O)C(C)C)C(C)C)[C@@H](C)O)C(C)C)[C@@H](C)O)C(C)C)[C@@H](C)O)C(=O)N[C@@H](CCC(=O)O)C(=O)N[C@@H](CCCCN)C(=O)N[C@@H](Cc1ccc(O)cc1)C(=O)N[C@@H](CC(C)C)C(=O)N[C@@H](CCCCN)C(=O)N[C@@H](CC(=O)O)C(=O)N[C@@H](CCC(N)=O)C(N)=O [DP-118]	inhibits HIV-1 cell free virus infection
CC[C@H](C)[C@H](NC(=O)CNC(=O)[C@H](Cc1c[nH]c2ccccc12)NC(=O)[C@@H](NC(=O)[C@@H](NC(=O)[C@H](CC(C)C)NC(=O)[C@H](CCC(N)=O)NC(=O)[C@H](CC(C)C)NC(=O)[C@H](CC(C)C)NC(=O)[C@H](Cc1c[nH]cn1)NC(=O)[C@H](CCC(N)=O)NC(=O)[C@H](CCC(N)=O)NC(=O)[C@H](C)NC(=O)[C@H](CCC(=O)O)NC(=O)[C@@H](NC(=O)[C@H](C)NC(=O)[C@H](CCCNC(=N)N)NC(=O)[C@H](CC(C)C)NC(=O)[C@H](CC(C)C)NC(=O)[C@H](CC(N)=O)NC(=O)[C@H](CC(N)=O)NC(=O)CNC(=O)CNC(=O)[C@H](CS)NC(C)=O)[C@@H](C)CC)[C@@H](C)O)C(C)C)C(=O)N[C@@H](CCCCN)C(=O)N[C@@H](CCC(N)=O)C(=O)N[C@@H](CC(C)C)C(=O)N[C@@H](CCC(N)=O)C(=O)N[C@@H](C)C(=O)N[C@@H](CCCNC(=N)N)C(=O)N[C@H](C(=O)N[C@@H](CC(C)C)C(=O)N[C@@H](C)C(=O)N[C@H](C(=O)N[C@@H](CCC(=O)O)C(=O)N[C@@H](CCCNC(=N)N)C(=O)N[C@@H](Cc1ccc(O)cc1)C(=O)N[C@@H](CC(C)C)C(=O)N[C@@H](CCCCN)C(=O)N[C@@H](CC(=O)O)C(=O)N[C@@H](CCC(N)=O)C(N)=O)C(C)C)[C@@H](C)CC [DP-125]	inhibits HIV-1 cell free virus infection
